Data published in paper PMC4131687.

Tests used:
[1] = molecular target: NaV1.2 (Rattus norvegicus) (UniProt P04775)
[2] = molecular target: NaV1.2 (Rattus norvegicus) (UniProt P04775); remark: listed apart in the source

Row | Substance | Kd [1] [nM] | Kd [2] [nM]
1 | μ-conotoxin KIIIB-P1 (from UniProt P0C195) | 470 | 
2 | μ-conotoxin KIIIB-P2 (from UniProt P0C195) |  | 26

Read-outs that look alike come from different tables or passages of the source.
